Reference: article doi:10.1101/2021.03.25.436940

Test system: VirE2 (Agrobacterium tumefaciens)
Assay: EMSA
Settings: 5 mM Mg2+

GCGGTGGAAGTAGCAACAGCGGTTCTAGCGGCAGCGGCG [39-nt experimental oligo (ssDNA)]
binds: binding result | binding result (GSH added, no GSTU5, no significant difference to VirE2 alone) | binding result (OsGSTU5 added, no GSH, no significant difference to VirE2 alone)

Construct, isoform or probe ends are uncertain for at least one entry.
